In paper PMC8497620, “Structure and inhibition of Cryptococcus neoformans sterylglucosidase to develop antifungal agents” (Nature Communications, 2021):

system: human lung epithelial cancer cell line A549; details: LD50 A549 / IC50 Sgl1
Protocol: The cells were maintained in Dulbecco’s modified eagle medium containing 10% fetal bovine serum and 1% penicillin–streptomycin. At passage 11, 10^5 cells were transferred into each well of 96-well plates and cultured for 18–24 h for the cells to adhere to the well surface. After, the medium was removed and a fresh medium containing the selected compounds at a concentration range of 1–512 μM were added to the wells. Controls with equivalent serial concentrations of DMSO were also evaluated and compared with a control without DMSO. The plate was incubated at 37 °C with 5% CO2. After 24 h, the supernatant was removed and 50 μL of 5 mg/mL 3-(4,5-dimethylthiazol-2-yl)-2,5-diphenyltetrazoliumbromide (MTT) solution in phosphate-buffered saline (PBS) was added to each well. The plates were incubated for an additional 4 h and the formazan crystals formed inside the cell was dissolved by adding 50 μL DMSO.

| Compound | selectivity index (SI = LD50/IC50) |
| --- | --- |
| Cc1[nH]c2ccc(CNc3nccc(N)n3)cc2c1C [Hit 6] | 90.65 |
| Cc1ccsc1CN(CCN(C)C)Cc1ccc2nonc2c1 [Hit 10] | 603.6 |
| CN1C[C@H](NS(=O)(=O)c2cc(Cl)ccc2Cl)C[C@H]1CO [Hit 13] | 108.6 |
| CN1C[C@H](Nc2nc(C(C)(C)C)nc3c2cnn3C)C[C@H]1CO [Hit 14] | 357 |
